Measured values from several laboratories, pooled; numbers as filed in NIAID ChemDB.

Shared fields: whole-cell or culture tests; organism: Vaccinia virus; endpoint: EC50

Two numbers with a dash give a range or band.

smiles | strain or isolate | cells | value
CC(=O)OCCOCN1C(C)=CC(N)=[N+](c2ccccc2)S1(=O)=O |  | E6SM | >400 µg/mL
O=c1[nH]c(=O)n([C@H]2C[C@H](O)[C@@H](CO)O2)cc1CN1CCCC1 |  | PRK | ≥200 µg/mL
N=c1ncn(Cc2ccco2)c2nc[nH]c12 |  | BSC-1 | >100 µg/mL
CCc1cn([C@H]2C[C@H](O)[C@@H](CO)O2)c(=O)[nH]c1=O |  | PRK | 1 µg/mL
CO[C@H]1[C@H](O)[C@H](n2cnc3c(N)ncnc32)O[C@@H]1CO |  | PRK | 20 µg/mL
CC(C)CS[C@@H]1C[C@H](n2cnc3c(N)ncnc32)[C@@H](O)[C@H]1O |  | E6SM | >80 µg/mL
Cc1nc2c(=O)[nH]c(N)nc2n1COCCO |  | PRK | >400 µg/mL
c1ccc(-c2nn3c(-c4cn(-c5ccccc5)nc4-c4ccccc4)nnc3s2)cc1 |  | HEL | >3.2 µg/mL
CC1(C)[C@@H](CCO)C[C@H]1n1nnc2c(N)ncnc21 |  | E6SM | 70 µg/mL
CCc1cn([C@H]2C[C@H](O)[C@@H](COP(=O)(O)O)O2)c(=O)[nH]c1=O |  | PRK | 174 µg/mL
NC1=Nn2c(nnc2-c2cn(-c3ccccc3)nc2-c2ccccc2)SC1 |  | HEL | >16 µg/mL
O=c1[nH]c(C#CCF)nc2c1ncn2[C@@H]1O[C@H](CO)[C@@H](O)[C@H]1O |  | HFF | >20 µg/mL
CC1COc2c(N3CCN(C)CC3)c(F)cc3c(=O)c(C(=O)O)cn1c23 | Lister | HeLa | 37 µg/mL
[N-]=[N+]=NCc1cn([C@H]2C[C@H](O)[C@@H](CO)O2)c(=O)[nH]c1=O |  | HSF | >200 µg/mL
CCOC(=O)C1Sc2nnc(-c3cn(-c4ccccc4)nc3-c3ccccc3)n2NC1=O |  | HEL | >80 µg/mL
C=CCc1nc(C)n2c(=O)[nH]c(=S)[nH]c12 |  | PRK | >40 µg/mL
CCOC(=O)C1=CN(COCCO)S(=O)(=O)NC1=O |  | E6SM | >400 µg/mL
O=c1ccn(C2CC(O[N+](=O)[O-])C(CO)O2)c(=O)[nH]1 |  | E6SM | >400 µg/mL
O=c1[nH]c(=O)n([C@H]2C[C@H](O)[C@@H](CO)O2)cc1Cl |  | Primary rabbit kidney cells | 0.76 µM
C=C[C@H](O)C1=C[C@@H](n2cnc3c(N)ncnc32)[C@H](O)[C@@H]1O |  | E6SM | 70 µg/mL
OCCCCn1cc(Cn2ncc3c(NCc4ccccc4)ncnc32)nn1 |  | E6SM | >400 µg/mL
CC1(C)[C@@H](CCO)C[C@H]1n1nnc2c(N)nc(N)nc21 |  | E6SM | 20 µg/mL
Nc1ncnc2c1ncn2[C@@H]1O[C@H](COP(=O)(O)O[C@@H]2[C@H](O)[C@@H](COP(=O)(O)O[C@@H]3[C@H](O)[C@@H](COP(=O)(O)OP(=O)(O)OP(=O)(O)O)O[C@H]3n3cnc4c(N)ncnc43)O[C@H]2n2cnc3c(N)ncnc32)[C@@H](O)[C@H]1O |  | PRK | 150 µg/mL
NC1=CC(c2ccccc2)=Nn2c(nnc2-c2cn(-c3ccccc3)nc2-c2ccccc2)S1 |  | HEL | >80 µg/mL
CO[C@H]1[C@H](OC)[C@@H](CO)O[C@H]1n1cnc2c(N)ncnc21 |  | PRK | >100 µg/mL
Cc1cn([C@@H]2OC3COP(=O)(O)OC3[C@H]2O)c(=O)nc1N |  |  | >400 µg/mL
Nc1ncnc2c1ncn2[C@@H]1C=C(CO)[C@@H](O)[C@H]1O |  | PRK | 0.2 µg/mL
Cc1cn(C2CC(O[N+](=O)[O-])C(CO)O2)c(=O)[nH]c1=O |  | E6SM | >400 µg/mL
CC(=O)OCCOCN1C=CC(=O)N(COCCOC(C)=O)S1(=O)=O |  | E6SM | >400 µg/mL
CN1CCN(Cc2cn([C@H]3C[C@H](O)[C@@H](CO)O3)c(=O)[nH]c2=O)CC1 |  | PRK | ≥200 µg/mL
Nc1nc(Cl)c2ccn([C@H]3CO[C@@H](CO)C3)c2n1 |  | E6SM | 20 µg/mL
O=c1[nH]c(=O)n([C@H]2C[C@H](O)[C@@H](COP(=O)([O-])OP(=O)([O-])OC[C@@H]3OC(O)[C@H](O)[C@H](O)[C@H]3O)O2)cc1I |  | E6SM | 0.4 µg/mL
CC1(C)[C@@H](CCO)C[C@H]1n1cnc2c(=O)[nH]cnc21 |  | E6SM | >400 µg/mL
CC(=O)Nc1nc2c(CC(O)CO)nc(C)n2c(=O)[nH]1 |  | PRK | >400 µg/mL
Nc1ncnc2c1ncn2[C@@H]1C[C@H](NC=O)[C@@H](O)[C@H]1O |  | HFF | >100 µg/mL
Nc1nc2c(nc(N)n2COCCO)c(=O)[nH]1 |  | PRK | >400 µg/mL
CCCCCCc1cn([C@@H]2OC3COP(=O)(O)OC3[C@H]2O)c(=O)nc1N |  |  | >400 µg/mL
O=P(O)(O)OC[C@H]1OC(O)[C@@H](O)[C@@H](O)[C@@H]1O |  | PRK | >400 µg/mL
CCCCn1cnc(=N)c2[nH]cnc21 |  | BSC-1 | >100 µg/mL
N#Cc1cn(C2O[C@H](CO)[C@@H](O)[C@H]2O)c(=O)[nH]c1=O |  | Primary rabbit kidney cells | >370 µM
Nc1ncnc2c1ncn2C[C@@H](CO)OCP(=O)(O)O |  | VERO | 8.1 µg/mL
C=CC1=C[C@@H](n2cnc3c(N)ncnc32)[C@H](O)[C@@H]1O |  | PRK | 20 µg/mL
CO[C@H]1/C=C/O[C@@]2(C)Oc3c(C)c(O)c4c(O)c(c(/C=N/NC(=O)CN5CCN(c6ccc(Oc7ccccc7)cc6)CC5)c(O)c4c3C2=O)NC(=O)/C(C)=C\C=C\[C@H](C)[C@H](O)[C@@H](C)[C@@H](O)[C@@H](C)[C@H](OC(C)=O)[C@@H]1C |  | L929 | >50 µg/mL
O=c1[nH]c(=O)n(COCCO)cc1Cl |  | PRK | >400 µg/mL
COC(=O)[C@]1(C)CCC[C@]2(C)c3ccc4nc5c(nc4c3CCC12)CCCC5 |  | E6SM | >4 µg/mL
CCCCc1cn([C@@H]2O[C@H](COP(=O)(O)O)[C@@H](O)[C@H]2O)c(=O)nc1N |  |  | >400 µg/mL
CO[C@H]1/C=C/O[C@@]2(C)Oc3c(C)c(O)c4c(O)c(c(/C=N/NC(=O)CN5CCN(c6ccc(Br)cc6)CC5)c(O)c4c3C2=O)NC(=O)/C(C)=C\C=C\[C@H](C)[C@H](O)[C@@H](C)[C@@H](O)[C@@H](C)[C@H](OC(C)=O)[C@@H]1C |  | L929 | >50 µg/mL
CCCc1cn([C@H]2C[C@H](O)[C@@H](COP(=O)(O)O)O2)c(=O)[nH]c1=O |  | BSC-1 | >797 µg/mL
N=c1ncn(CC2CCCCC2)c2nc[nH]c12 |  | BSC-1 | >50 µg/mL
COC(=O)[C@]1(C)CCC[C@]2(C)c3cc(Br)c4[nH]ccc4c3CCC12 |  | E6SM | >4 µg/mL
O=c1[nH]c(=O)n([C@H]2C[C@H](O)[C@@H](CO)O2)cc1C(F)(F)F |  | Primary rabbit kidney cells | 0.33 µM
CC[C@@H](O)C1=C[C@@H](n2cnc3c(N)ncnc32)[C@H](O)[C@@H]1O |  | E6SM | 7 µg/mL
C#Cc1nc(Cl)c2ncn([C@@H]3O[C@H](CO)[C@@H](O)[C@H]3O)c2n1 |  | HFF | >0.8 µg/mL
CO[C@H]1/C=C/O[C@@]2(C)Oc3c(C)c(O)c4c(O)c(c(/C=N/NC(=O)CN5CCN(c6ccc(C(C)(C)C)cc6)CC5)c(O)c4c3C2=O)NC(=O)/C(C)=C\C=C\[C@H](C)[C@H](O)[C@@H](C)[C@@H](O)[C@@H](C)[C@H](OC(C)=O)[C@@H]1C |  | L929 | >50 µg/mL
Nc1nc2c(ccn2[C@H]2CO[C@@H](CO)C2)c(=O)[nH]1 |  | E6SM | 300 µg/mL
Nc1ncnc2c1ncn2[C@@H]1C=C(CO)[C@@H](O)[C@H]1O |  | E6SM | 0.2 µg/mL
CCc1cn([C@H]2C[C@H](O)[C@@H](CO)O2)c(N)nc1=O |  | PRK | >400 µg/mL
CC[C@H](O)C1=C[C@@H](n2cnc3c(N)ncnc32)[C@H](O)[C@@H]1O |  | E6SM | >200 µg/mL
c1ccc(C2=Nn3c(nnc3-c3cn(-c4ccccc4)nc3-c3ccccc3)SC2)cc1 |  | HEL | >3.2 µg/mL
Nc1nc(N)c(Br)c(OCCOCP(=O)(O)O)n1 |  | E6SM | 700 µM
NC1=CC(N)=NS(=O)(=O)N1COCCO |  | E6SM | >400 µg/mL
CC(=O)OCCOCn1cnc2c(Cl)nc(Cl)nc21 |  | PRK | >10 µg/mL
CC(=O)OCCOCN1C=CC(=O)N(COCCO)S1(=O)=O |  | E6SM | >400 µg/mL
CCc1cn([C@@H]2OC3COP(=O)(O)OC3[C@H]2O)c(=O)nc1N |  |  | >400 µg/mL
OCCCCn1nncc1Cn1ncc2c(SCc3ccccc3)ncnc21 |  | E6SM | >400 µg/mL
O=c1[nH]n2c(-c3cn(-c4ccccc4)nc3-c3ccccc3)nnc2sc1=O |  | HEL | >80 µg/mL
O=C(CC1CCCCC1)N(O)c1ccccc1 |  | E6SM | >80 µg/mL
O=c1[nH]c(=O)n([C@H]2C[C@H](O)[C@@H](CO)O2)cc1I |  | PRK | 0.07 µg/mL
Nc1ncnc2c1ncn2[C@H]1C[C@@H](O)[C@H](CO)O1 |  | VERO B | >1000 µM
COC(=O)Nc1nc2c3c(ccc2[nH]1)[C@@]1(C)CCC[C@@](C)(C(=O)OC)C1CC3 |  | E6SM | >4 µg/mL
N=c1c2ncn([C@@H]3O[C@H](CO)[C@@H](O)[C@H]3O)c2ncn1OCc1cc(F)cc(F)c1 |  | VERO | 1.18 µg/mL
CCCCCCc1cn([C@@H]2O[C@H](COP(=O)(O)O)[C@@H](O)[C@H]2O)c(=O)nc1N |  |  | >400 µg/mL
Nc1ncnc2c1ncn2[C@@H]1CC[C@@H](O)[C@H]1O |  | L929 | 0.17 µM
CO[C@H]1/C=C/O[C@@]2(C)Oc3c(C)c(O)c4c(O)c(c(/C=N/NC(=O)CN5CCN(c6ccc(C(F)(F)F)cc6)CC5)c(O)c4c3C2=O)NC(=O)/C(C)=C\C=C\[C@H](C)[C@H](O)[C@@H](C)[C@@H](O)[C@@H](C)[C@H](OC(C)=O)[C@@H]1C |  | L929 | >50 µg/mL
O=c1[nH]c(=O)n(COCCO)cc1Br |  | PRK | >400 µg/mL
CCCCCCCCCCCCCCCCOCCCOP(=O)(O)COCCn1cnc2c(=O)[nH]c(N)nc21 | Copenhagen | HFF | 0.091 µM
O=C(Nn1c(-c2cn(-c3ccccc3)nc2-c2ccccc2)n[nH]c1=S)c1ccccc1 |  | HEL | >16 µg/mL
CSCc1cn([C@H]2C[C@H](O)[C@@H](CO)O2)c(=O)[nH]c1=O |  | HSF | 7 µg/mL
Nc1ccn([C@H]2C[C@@H](O)[C@H](CO)O2)c(=O)n1 |  | VERO B | >10 µM
O=c1[nH]cnc2c1ncn2COCCO |  | PRK | >400 µg/mL
Nc1ncnc2c1ncn2CC(O)CO |  | PRK | 40–70 µg/mL
CC(=O)OC1C(OC(C)=O)[C@@H](COS(=O)(=O)NC(C)C)O[C@H]1n1ccc(=O)[nH]c1=O |  | VERO | 101 µg/mL
CO[C@H]1/C=C/O[C@@]2(C)Oc3c(C)c(O)c4c(O)c(c(/C=N/NC(=O)CN5CCN(c6ccc(C#N)cc6)CC5)c(O)c4c3C2=O)NC(=O)/C(C)=C\C=C\[C@H](C)[C@H](O)[C@@H](C)[C@@H](O)[C@@H](C)[C@H](OC(C)=O)[C@@H]1C |  | L929 | >50 µg/mL
Cc1ccccc1Cn1cnc(=N)c2[nH]cnc21 |  | BSC-1 | >50 µg/mL
COC(=O)[C@]1(C)CCC[C@]2(C)c3ccc4[nH]c(C)nc4c3CCC12 |  | E6SM | >4 µg/mL
CNc1ncnc2c1cnn2Cc1cn(CCCCO)nn1 |  | E6SM | >400 µg/mL
Nc1cc(OC[C@H](CO)OCP(=O)(O)O)nc(N)n1 |  | E6SM | 6.5 µM
Cc1nc(CC(O)CO)c2nc[nH]c(=O)n12 |  | PRK | >400 µg/mL
Nc1ccn(COCCO)c(=O)n1 |  | PRK | >400 µg/mL

ECn is the concentration giving n% inhibition of infection, replication or growth. Lines come from different laboratories, so protocols vary. An empty or dashed field is not shown.